Biological target: T1, biotin-conjugated histone H3 (1-21aa) peptide, …-GGK(Biotin)-NH2 (biotin on the C-terminal lysine; C-terminal amide)
T1 construct: also called p1
Experiment: pull-down

B1: GST-tagged LegAS4-Asn493Tyr (enzyme)
chain: MIILYDFLQESSVMPRSKNDSKLKKKSALQSKFKEQQLNHGSKEHKSKFKFSQRKAKKKGPGMTHLPGNIYTLFTPVNGPKSKDEWIDTSKIMLDLHIDNMSSSDYIPSAIDRTDLVMVQSVHLLRKTGGRGLFAREDIPKGTCIGIYTGEVYSEQEFEQYLKEHVGSDKSYAMYVGGRVIDAARKGNLTRYINFSDSQDNAEFVETTLNRKKVAKVITTKNIKAGQQLLINYNTYEEQASRYYYFLNPGDGWLSAQEFYQTYQSQYRLEQMPYNLEGFDLKAGDRVLMTQIGRIILANYSLAKEQELNASDIDLPFLKVGSDEKILDFDEADTFTPLMAACYLGQVENVKWLIEHGANIDQQQSHSGHCPLSLTLKGYSLAKDTQKYIDIIQLLIKNQVNLLVHDRSDKTFLHNAALVLNNLDFQSVVKFLIGQNPIDINEYFTYIDENDFDIVMHCYNNKLFDKALVLLAFYPDYFKRNYMSDNEGHNQFYINAFRKAIKDFNSNERSILLMQLRESGLHLPEDLLEQLGIMDSSITLESKFF
B1: binds.

— article PMC10653858 (mBio, 2023)
